Data reported in patent publication US11603552B2 (priority 2020, dated 2023).

Target: MERS PLpro (Middle East respiratory syndrome-related coronavirus, UniProt K9N7C7)
Test: substrate cleavage by coronavirus PLpro

hTyr-Dap-G-G (SEQ ID NO. 13)
recognition of the substrate: do not recognize
